No end group written: not given here.
Test system: C. albicans
Experiment: Ergosterol binding assay (MIC in presence and absence of ergosterol)
Format: cell-based, Candida albicans
Conditions: concluded from unchanged MIC against C. albicans
Procedure: An ergosterol binding assay was performed to measure the binding potency of peptides to fungal membrane sterols. For this purpose, the ergosterol was dissolved in DMSO and Tween-20, it was heated to increase the solubility of the formed emulsion and diluted in an SDB medium at a concentration of […] and incubated at 37 °C for 1 h. After that, MIC of the AurH1, Ac-AurH1, and AurH1-NH2 peptides was measured by the micro-dilution method in the presence and absence of ergosterol in different concentrations ([…]) against C. albicans.

Substance	binding to Ergosterol (in words)
H-WFKIIKK-NH2 [AurH1-NH2, WFKIIKK-NH2]	do not bind to Ergosterol
WFKIIKK [AurH1, WFKIIKK]	do not bind to Ergosterol
